Compound potency records, mixed from different reports. Data source: NIAID ChemDB in PubChem.

Common to all: whole-cell or culture tests; species: Toxoplasma gondii; read-out: EC50

ECn is the concentration giving n% inhibition of infection, replication or growth. An empty or dashed field is not shown. Neighbouring rows are from separate reports.

O=C1C(c2c(O)[nH]c3ccc([N+](=O)[O-])cc23)=Nc2ccccc21 ; strain or isolate: ATCC 50839 ; cells: HFF ; result: >320 µg/mL
Nc1ccc(S(=O)(=O)Nc2ncccn2)cc1 ; result: >1 µg/mL
Cc1c(O)cccc1C(=O)N[C@@H](CSc1ccccc1)[C@H](O)CN1C[C@H]2CCCC[C@H]2C[C@H]1C(=O)NC(C)(C)C ; strain or isolate: RH ; cells: MRC-5 ; result: 4 µg/mL
O=[N+]([O-])c1ccc(CNc2ncnc3c2ncn3[C@@H]2O[C@H](CO)[C@@H](O)[C@H]2O)c(F)c1 ; result: 230 µM
CC1(C)N=C(N)N=C(N)N1OCCCOc1cc(Cl)c(Cl)cc1Cl ; strain or isolate: RH ; result: 0.05 µM
CCC(=O)CCCCC[C@@H]1NC(=O)[C@H]2C[C@H](C)CN2C(=O)C(Cc2ccccc2)NC(=O)[C@@](C)(CC)NC1=O ; strain or isolate: RH ; cells: HFF ; result: 0.0853 µM
C=C1CC[C@H](O)C/C1=C/C=C1\CCC[C@]2(C)[C@@H]([C@H](C)CCCC(C)C)CC[C@@H]12 ; strain or isolate: RH ; result: <0.1 µM
C/C1=C\[C@H](C)C[C@H](C)OC(=O)C[C@H](c2ccc(O)cc2)NC(=O)[C@@H](Cc2c(Br)[nH]c3ccccc23)N(C)C(=O)[C@H](C)NC(=O)[C@H](C)C1 ; strain or isolate: RH ; result: >5 µM
Cc1nc2n(c(=O)c1CCN1CCC(c3noc4cc(F)ccc34)CC1)CCCC2 ; cells: HFF ; result: 74 µg/mL
C[C@H]1[C@@H](CCCC(=O)c2ccccc2)O[C@@H]2OC3(C)CC[C@H]4[C@H](C)CC[C@@H]1[C@@]24OO3 ; cells: HFF ; result: 0.6 µg/mL
CC[C@H]1OC(=O)[C@H](C)C(=O)[C@H](C)[C@@H](O[C@@H]2O[C@H](C)C[C@H](N(C)C)[C@H]2O)[C@](C)(OC)C[C@@H](C)C(=O)[C@H](C)[C@H]2N(NCCCc3ccnc4ccccc34)C(=O)O[C@]12C ; strain or isolate: RH ; cells: HFF ; result: ≤0.05 µg/mL
Nc1ccc(S(=O)(=O)Nc2cc(I)cc(I)c2)cc1 ; result: 15.9 µM
COc1c(N2C[C@@H]3C(N)[C@@H]3C2)c(F)cc2c(=O)c(C(=O)O)cn(C3CC3)c12 ; strain or isolate: RH ; cells: MRC-5 ; result: 2.1 µM
CCCN(CCC)c1c([N+](=O)[O-])cc(S(N)(=O)=O)cc1[N+](=O)[O-] ; strain or isolate: Ethalfluralin-resistant ; result: 3 µM
CCCCCCCCCCCCc1c(C)c(=O)c2ccccc2n1O ; result: 0.004 µM
NC(=O)N1c2ccccc2C=Cc2ccccc21 ; cells: HFF ; result: 72 µg/mL
CC(C)=CCC[C@@H](C)CCCC[C@H]1O[C@@H]2OC3(C)CC[C@H]4[C@H](C)CC[C@@H]([C@H]1C)[C@@]24OO3 ; cells: HFF ; result: 2.7 µg/mL
CCOC(=O)C1C(c2ccc(OC)cc2)CC(c2ccccc2)=CC12NCCN2 ; strain or isolate: RH ; cells: HFF ; result: 0.0097 µM
Nc1ccc(S(=O)(=O)Nc2cc(Br)cc(Br)c2)cc1 ; result: 8.9 µM
CO[C@@H]1C(=O)OC[C@H](C)[C@H](C)/C=C(\C)C[C@H](C)C(=O)N[C@@H](C)C(=O)N(C)[C@H](Cc2c[nH]c3ccccc23)C(=O)N[C@H]1c1ccc(C(N)=O)cc1 ; cells: Human foreskin fibroblasts ; result: ≥45 µM
CC[C@@]1(C)NC(=O)[C@H](CCCCCC(=O)[C@H](C)OC(=S)Oc2ccccc2)NC(=O)[C@H]2C[C@H](C)CN2C(=O)C(Cc2ccccc2)NC1=O ; strain or isolate: RH ; cells: HFF ; result: 0.0113 µM
CCCCCCCN(CC1=C(O)c2ccccc2C(=O)C1=O)Cc1ccccc1 ; strain or isolate: PLK ; result: 2.1 µM
CO[C@H]1/C=C/O[C@@]2(C)Oc3c(C)c(O)c4c(O)c(c5c(c4c3C2=O)NC2(CCN(CC(C)C)CC2)N=5)=NC(=O)/C(C)=C\C=C\[C@H](C)[C@H](O)[C@@H](C)[C@@H](O)[C@@H](C)[C@H](OC(C)=O)[C@@H]1C ; result: 1.68 µg/mL
O=C1C(c2c(O)[nH]c3ccc(S(=O)(=O)O)cc23)=Nc2ccccc21 ; strain or isolate: ATCC 50839 ; cells: HFF ; result: >320 µg/mL
COc1c(N2C[C@@H]3C(CN)[C@@H]3C2)c(F)cc2c(=O)c(C(=O)O)cn(C3CC3)c12 ; strain or isolate: RH ; cells: MRC-5 ; result: 66 µM
O=C1C2=C(C(=O)c3ccccc31)[C@H]1Oc3ccccc3[C@H]1CO2 ; cells: Fibroblastic LLC-MK2 ; result: 2.5 µM
O=C1CCCN2C(CC1)C[C@@]13CN4CCCC/C=C/CC[C@@](O)(C=C(c5nccc6c5[nH]c5c(O)cccc56)[C@H]1CC4)[C@@H]23 ; cells: HFF ; result: >10 µM
CCOC(=O)c1cc2ccccc2nc1C ; cells: HFF ; result: 100 µM
O=C1C(c2c(O)[nH]c3cc(Cl)ccc23)=Nc2ccccc21 ; strain or isolate: ATCC 50839 ; cells: HFF ; result: >320 µg/mL
CCOC(=O)C1C(c2ccc(C)cc2)CC(c2ccccc2)=CC12NCCN2 ; strain or isolate: RH ; cells: HFF ; result: 0.0097 µM
CCCN(CCC)c1c([N+](=O)[O-])cc(S(N)(=O)=O)cc1[N+](=O)[O-] ; strain or isolate: RH ; result: <1 µM
CO[C@H]1O[C@@H]2O[C@@]3(C)CC[C@H]4[C@H](C)CC[C@@H]([C@H]1C)[C@@]24OO3 ; cells: HFF ; result: 0.2 µg/mL
CCOC(=O)C1C(c2ccc(C)cc2)CC(c2ccc(Cl)cc2)=CC12NCCN2 ; strain or isolate: RH ; cells: HFF ; result: 0.0097 µM

For reference, 2 entries again:

smiles | strain or isolate | cells | result
O=C1CCCN2C(CC1)C[C@@]13CN4CCCC/C=C/CC[C@@](O)(C=C(c5nccc6c5[nH]c5c(O)cccc56)[C@H]1CC4)[C@@H]23 |  | HFF | >10 µM
CO[C@H]1/C=C/O[C@@]2(C)Oc3c(C)c(O)c4c(O)c(c5c(c4c3C2=O)NC2(CCN(CC(C)C)CC2)N=5)=NC(=O)/C(C)=C\C=C\[C@H](C)[C@H](O)[C@@H](C)[C@@H](O)[C@@H](C)[C@H](OC(C)=O)[C@@H]1C |  |  | 1.68 µg/mL